A mixed list of measured activities; the numbers were collected in NIAID ChemDB.

Shared fields: whole-cell or culture tests; organism: Hepatitis C virus; endpoint: EC50

Two numbers with a dash give a range or band.

CS(=O)(=O)NC(=O)c1ccc2c(C3CCCCC3)c3n(c2c1)CC=Cc1ncccc1-3 ; cells: Huh7 ; read by: replicon ; value: >10 µM
COCC(C)N(C(=O)C1CCC(C)CC1)c1cc(-c2ccc(NC(=O)c3cn(C)cn3)cc2)sc1C(=O)O ; read by: replicon ; strain: 1b ; value: <0.5 µM
Cc1onc(C(=O)N2c3cccc(O)c3NC3=C(C(=O)CC(C)(C)C3)C2c2ccc(OCc3ccccc3)cc2F)c1COc1ccccc1 ; read by: luciferase / reporter gene / replicon ; strain: 1b ; value: 1.39 µM
CNC(=O)c1c(-c2ccc(F)cc2)oc2cc(N3CCOCC3)c(OCc3nccs3)cc12 ; cells: Huh7 ; read by: replicon ; value: <1 µM
Fc1ccc(-c2ccc3nc(NCCN4CCOCC4)nc(NCC(F)(F)F)c3n2)cc1 ; read by: replicon ; value: <0.1 µM
CC1(C)CC(=O)C2=C(C1)Nc1c(O)cccc1NC2c1ccc(C(F)(F)F)cc1C(F)(F)F ; read by: luciferase / reporter gene / replicon ; strain: 1b ; value: 41.26 µM
CC1CCC(C(=O)N(c2cc(-c3ccc(NC(=O)c4cscn4)c(Cl)c3)sc2C(=O)O)C(C)C)CC1 ; read by: replicon ; strain: 1a ; value: <0.5 µM
CCCCCCCCOc1ccc(N(C(=O)NCC(=O)O)c2nc(-c3cccnc3)cs2)cc1C(F)(F)F ; value: <1 µM
CCCCNc1ccc2c(c1)Cc1cc(NC(N)=S)ccc1-2 ; cells: Ava5-EG(delta4AB)SEAP ; read by: reporter gene / fluorescence ; value: 0.001–1 µM
COC(=O)N[C@H](C(=O)N1CCCC1c1ncc(-c2ccc(-c3ccc(-c4cnc([C@@H]5CC(C)CN5C(=O)[C@@H](NC(=O)CO)C(C)C)[nH]4)cc3)cc2)[nH]1)C(C)C ; cells: Lunet ; read by: luciferase ; strain: 1a ; mutations: Q30H ; value: 0.000708 µM
CC1(C)CC(=O)C2=C(C1)Nc1c(O)cccc1NC2c1ccc(C#N)cc1Cl ; read by: luciferase / reporter gene / replicon ; strain: 1b ; value: 28.19 µM
S=C(NCCc1ccccc1)Nc1ccc2c(c1)Cc1cc(Br)ccc1-2 ; cells: Ava5-EG(delta4AB)SEAP ; read by: reporter gene / fluorescence ; value: 0.001–1 µM
CS(=O)(=O)CCNc1nc(NCc2ccc(S(N)(=O)=O)cc2)nc2ccc(-c3ccc(C(=O)NC4CC4)cc3)nc12 ; read by: replicon ; value: 0.1–0.25 µM
O=C(NS(=O)(=O)C1CC1)c1ccc2c(C3CCCCC3)c3n(c2c1)CCCc1ncccc1-3 ; cells: Huh7 ; read by: replicon ; value: 0.01–1 µM
CNC(=O)c1c(-c2ccc(F)cc2)oc2cc(N(C)C)c(OC)cc12 ; cells: Huh7 ; read by: replicon ; value: <1 µM
Cn1cnc(S(=O)(=O)NC(=O)c2ccc3c(C4CCCCC4)c4n(c3c2)CC=Cc2ccccc2-4)c1 ; cells: Huh7 ; read by: replicon ; value: >10 µM
CCOc1nc(NCc2ccc(F)cc2)nc2ccc(-c3ccc(NC(=O)CN)cc3)nc12 ; read by: replicon ; value: <0.1 µM
CN1CCN(C(=O)C2Cc3ccccc3-c3c(C4CCCCC4)c4ccc(C(=O)O)cc4n3C2)CC1 ; cells: Huh7 ; read by: replicon ; value: 0.01–1 µM
NC(=S)Nc1cccc(OCCCCCOc2ccc(-c3cccs3)cc2)c1 ; cells: Ava5-EG(delta4AB)SEAP ; read by: reporter gene / fluorescence ; value: 0.001–1 µM
Nc1nc(N2CCS(=O)(=O)CC2)c2nc(-c3ccc(C(=O)NC4CC4)cc3)ccc2n1 ; cells: Huh7 ; read by: replicon ; value: <0.3 µM
CN(C)CCNC(=O)CCC(=O)N1c2cccc(O)c2NC2=C(C(=O)CC(C)(C)C2)C1c1ccc(OCc2ccccc2)cc1Cl ; read by: luciferase / reporter gene / replicon ; strain: 1b ; value: 46.82 µM
NS(=O)(=O)c1ccc(CNc2nc(NCC(F)(F)F)c3nc(-c4ccc(C(=O)NC5CC5)cc4)ccc3n2)cc1 ; read by: replicon ; value: <0.1 µM
CNC(=O)c1c(-c2ccc(F)cc2)oc2cc(NS(=O)(=O)CCCCl)c(OC(C)C)cc12 ; cells: Huh7 ; read by: replicon ; value: <1 µM
COCC(C)N(C(=O)C1CCC(C)CC1)c1cc(-c2ccc(NC(=O)c3cscn3)cc2)sc1C(=O)O ; read by: replicon ; strain: 1a ; value: <0.5 µM
CCOc1nc(N)nc2ccc(-c3cccc(NS(=O)(=O)C4CC4)c3)nc12 ; cells: Huh7 ; read by: replicon ; value: <0.3 µM
O=C(NC1(C(=O)O)CCCCC1)c1ccc2c(C3CCCCC3)c3n(c2c1)CC=Cc1ccccc1-3 ; cells: Huh7 ; read by: replicon ; value: 1–10 µM
CNC(=O)c1c(-c2ccc(F)cc2)oc2cc(N3CCOCC3)c(OC(C)c3nccs3)cc12 ; cells: Huh7 ; read by: replicon ; value: <1 µM
CCCCCCCCCc1ccc(N(C(=O)OCOP(=O)(O)O)c2nc(-c3cccnc3)c(F)s2)cc1C(F)(F)F ; value: <1 µM
CN(C)S(=O)(=O)NC(=O)c1ccc2c(C3CCCCC3)c3n(c2c1)CC=Cc1ncccc1-3 ; cells: Huh7 ; read by: replicon ; value: 1–10 µM
CCOc1nc(NCc2ccc(S(N)(=O)=O)cc2)nc2ccc(-c3cccc(NS(=O)(=O)C4CC4)c3)nc12 ; read by: replicon ; value: <0.1 µM
CCCCCCCCOc1ccc(N(COC(=O)C(C)(C)C)c2nc(-c3cccnc3)c(F)s2)cc1C(F)(F)F ; value: <1 µM
NC(=S)Nc1ccc(OCCCCCc2ccccc2)cc1 ; cells: Ava5-EG(delta4AB)SEAP ; read by: reporter gene / fluorescence ; value: 0.001–1 µM
CCOc1nc(NCc2ccc(F)cc2)nc2ccc(-c3ccc4c(c3)CC(=O)N4)nc12 ; read by: replicon ; value: <0.1 µM
CNC(=O)c1c(-c2ccc(F)cc2)oc2cc(N(CC(O)c3ccc(F)cc3)S(C)(=O)=O)c(OC(C)C)cc12 ; cells: Huh7 ; read by: replicon ; value: <1 µM
N#Cc1cc(-c2ccc3nc(NCc4ccc(S(N)(=O)=O)cc4)nc(NCC(F)(F)F)c3n2)ccn1 ; read by: replicon ; value: <0.1 µM
O=C(O)c1ccc2c(C3CCCCC3)c3n(c2c1)CC/C=C\Nc1ccccc1-3 ; cells: Huh7 ; read by: replicon ; value: 1–10 µM
CNC(=O)c1c(-c2ccc(O)cc2)oc2ccc(OC(C)C)cc12 ; cells: Huh7 ; read by: replicon ; value: <10 µM
CC(C)(C)OC(=O)Nc1ccc2c(c1)Cc1cc(NC(N)=S)ccc1-2 ; cells: Ava5-EG(delta4AB)SEAP ; read by: reporter gene / fluorescence ; value: 0.001–1 µM
CC1CCC(C(=O)N(c2cc(-c3ccc(NC(=O)c4cscn4)cc3)sc2C(=O)[O-])C(C)C)CC1.NC(CCCC[NH3+])C(=O)O ; read by: replicon ; strain: 1a ; value: <0.5 µM
CCCCOc1ccc(N(C(N)=O)c2nc(-c3ccc(F)c(F)c3)cs2)cc1C(F)(F)F ; value: <1 µM
Cc1cc(C(=O)Nc2ccc(-c3cc(N(CC4CC4)C(=O)C4CCC(C)CC4)c(C(=O)O)s3)cc2)nn1C ; read by: replicon ; strain: 1a ; value: <0.5 µM
COC(=O)/C=C/c1ccc(NC(=O)C2(NC(=O)c3ccc4c(C5CCCCC5)c5n(c4c3)CCCc3occc3-5)CCCC2)cc1 ; cells: Huh7 ; read by: replicon ; value: 0.01–1 µM
CC(=O)N1c2cccc(O)c2NC2=C(C(=O)CC(C)(C)C2)[C@H]1c1ccc(OCc2ccccc2)c(Cl)c1 ; read by: luciferase / reporter gene / replicon ; strain: 1b ; value: 2.05 µM
CNC(=O)c1c(-c2ccc(F)cc2)oc2cc(NS(C)(=O)=O)c(OC)cc12 ; cells: Huh7 ; read by: replicon ; value: <1 µM

Repeating the first 4 entries:

{"smiles": "CS(=O)(=O)NC(=O)c1ccc2c(C3CCCCC3)c3n(c2c1)CC=Cc1ncccc1-3", "cells": "Huh7", "read by": "replicon", "value": ">10 µM"}
{"smiles": "COCC(C)N(C(=O)C1CCC(C)CC1)c1cc(-c2ccc(NC(=O)c3cn(C)cn3)cc2)sc1C(=O)O", "read by": "replicon", "strain": "1b", "value": "<0.5 µM"}
{"smiles": "Cc1onc(C(=O)N2c3cccc(O)c3NC3=C(C(=O)CC(C)(C)C3)C2c2ccc(OCc3ccccc3)cc2F)c1COc1ccccc1", "read by": "luciferase / reporter gene / replicon", "strain": "1b", "value": "1.39 µM"}
{"smiles": "CNC(=O)c1c(-c2ccc(F)cc2)oc2cc(N3CCOCC3)c(OCc3nccs3)cc12", "cells": "Huh7", "read by": "replicon", "value": "<1 µM"}

Conditions beyond the fields shown may differ between rows. ECn is the concentration giving n% inhibition of infection, replication or growth.